A mixed list of measured activities; the numbers were collected in NIAID ChemDB.

Shared fields: growth or infection tests; agent: HIV-1; method: MTT; measure: EC50

Conditions beyond the fields shown may differ between rows. ECn is the concentration giving n% inhibition of infection, replication or growth. Blank or dashed fields: not listed here.

| structure | strain or isolate | changes | cell line | value |
|---|---|---|---|---|
| COc1ccc(/C=C/C(=O)O)cc1OC | IIIB |  | MT-4 | 17.81 µM |
| c1ccc(CNCc2ccc(CN3CCNCCc4cccc(n4)CCNCC3)cc2)nc1 | IIIB |  | MT-4 | 0.001 µM |
| Nc1nc2c(ncn2[C@@H]2OC[C@](CO)(CCP(=O)(O)O)[C@@H]2F)c(=O)[nH]1 | LAI |  | PBMC | 88 µM |
| C#Cc1ccc(Nc2nccc(Oc3c(C)cc(-c4cn(Cc5cccc([N+](=O)[O-])c5)nn4)cc3C)n2)cc1 | RES056 |  | MT-4 | >101 µM |
| COC(=O)C1C(=O)N(O)C(=O)c2ccccc21 | IIIB |  | MT-4 | 13.44 µM |
| COC(=O)N[C@H](C(=O)N[C@@H](Cc1ccccc1)[C@@H](O)CN(Cc1ccc(-c2ccccn2)cc1)NC(=O)[C@@H](NC(=O)OC)C(C)(C)C)C(C)(C)C | ROD |  | MT-2 | 0.0076 µM |
| Cc1cc(C)c(Nc2nc(NC3CCN(Cc4cccc(F)c4)CC3)nc3nc[nH]c23)c(C)c1 | RES056 |  | MT-4 | >30.68 µM |
| Cc1cc(O)cc(O)c1 | IIIB |  | MT-4 | 22.17 µM |
| CC(=O)O[C@H]1[C@H](C)[C@@H]2O[C@@](NC(=O)OC(C)(C)C)([C@@H]3O[C@H]23)[C@H]1C | NL4-3 |  | MT-4 | >76 µM |
| C[C@@H]1CN(C(=O)c2ccccc2)CCN1C(=O)C(=O)c1c[nH]c2nccc(OCCOCCOCCOCCOCCOCCn3cc(COCCOCCOCCOCCNc4ccc([N+](=O)[O-])cc4[N+](=O)[O-])nn3)c12 | IIIB |  | MT-2 | 6.4 µM |
| Cc1cc(C#Cc2ccccc2N)cc(C)c1Oc1ccnc(Nc2ccc(C#N)cc2)n1 | IIIB | Y188L | MT-4 | >8.88 µM |
| Cc1cn([C@H]2C[C@H](N=[N+]=[N-])[C@@H](CO)O2)c(=O)[nH]c1=O | RES056 | RT-K103N Y181C | MT-4 | 0.01 µM |
| C[C@@H]1[C@H](O)[C@H](C)[C@@]2(NC(=O)OC(C)(C)C)O[C@@H]1[C@H]1O[C@H]12 | NL4-3 |  | MT-4 | >440 µM |
| COC(=O)N[C@H](C(=O)N[C@@H](Cc1ccccc1)C[C@H](O)[C@H](Cc1ccccc1)NC(=O)[C@@H]1CN(c2ccccc2)C(=O)O1)C(C)(C)C |  |  | MT-4 | 1.03 µM |
| Cc1cc(C#Cc2ccc(C(=O)O)cc2)cc(C)c1Oc1ccnc(Nc2ccc(C#N)cc2)n1 | IIIB | F227L + V106A | MT-4 | 0.296 µM |
| COc1cc([C@@H]2c3cc(O)c(OC)cc3C[C@@H](CO)[C@@H]2CO)ccc1O | IIIB |  | MT-4 | 167 µM |
| CC(C)CN(C[C@@H](O)[C@H](Cc1ccccc1)NC(=O)O[C@H]1CCOC1)S(=O)(=O)c1ccc(N)cc1 | LAI |  | MT-2 | 0.037 µM |
| CC(C)CN(C[C@@H](O)[C@H](Cc1ccccc1)NC(=O)O[C@H]1CCOC1)S(=O)(=O)c1ccc(N)cc1 | LAI |  | MT-2 | 0.05 µM |
| C=C1[C@H](CO)[C@@H](O)C[C@@H]1n1cnc2c(=O)[nH]c(N)nc21 | IIIB | E138K | MT-4 | 0.008 µM |
| Nc1nc2c(ncn2[C@@H]2OC[C@@](/C=C/P(=O)(O)O)(CO)[C@@H]2F)c(=O)[nH]1 | LAI |  | PBMC | 73 µM |
| Cc1ccc(-c2c(C)c(-c3ccc(C)c(C)c3)c3[nH]c(=O)ccc3c2C(OC(C)(C)C)C(=O)O)cc1C | IIIB |  | MT-4 | 0.038 µM |
| C=S(=C)(C)c1ccc(CN2CCC(Nc3nc(Nc4c(C)cc(C)cc4C)c4[nH]cnc4n3)CC2)cc1 | RES056 |  | MT-4 | >34.64 µM |
| CC(=O)[C@]12CCC(C)(C)C=C1C1=CCC3[C@@]4(C)CCC(=O)C(C)(C)C4CC[C@@]3(C)[C@]1(C)CC2 | IIIB |  | MT-4 | 37.62 µM |
| C[C@@H]1[C@H](O)[C@H](C)[C@@]2(NC(=O)OC(C)(C)C)O[C@@H]1[C@@H]1O[C@@H]12 | NL4-3 |  | MT-4 | >440 µM |
| C#Cc1ccc(Nc2nccc(Oc3c(C)cc(-c4cn(Cc5ccccc5[N+](=O)[O-])nn4)cc3C)n2)cc1 | RES056 |  | MT-4 | >7.22 µM |
| Cc1cc(C#Cc2cccc(N)c2)cc(C)c1Oc1ccnc(Nc2ccc(C#N)cc2)n1 | IIIB | F227L + V106A | MT-4 | 0.594 µM |
| C[C@H]1[C@@H]2O[C@]3(NC(=O)OC(C)(C)C)[C@@H](C)[C@H]1O[C@H]2[C@@H]3I | NL4-3 |  | MT-4 | >63 µM |
| COc1cc2c(c(OC)c1OC)-c1c(cc(OC(C)=O)c(OC)c1OC)[C@H](OC)[C@@H](C)[C@@H](C)C2 |  |  | C8166 | 2.26 µg/mL |
| CC(C)=CCC/C(C)=C/C[N+]1(C/C=C(\C)CCC=C(C)C)CCc2cc(O)c(O)cc2[C@H]1C |  |  | H9 | >2.5 µg/mL |
| N#Cc1cccc(CN2CCC(N=C3C=C(Cc4ccc(Cl)cc4Cl)NS(=O)(=O)N3)CC2)c1 | RES056 | RT-K103N Y181C | MT-4 | >99.87 µM |
| COc1ccc(CN2CCC(Nc3nc(Nc4c(C)cc(C)cc4C)c4[nH]cnc4n3)CC2)cc1 | IIIB |  | MT-4 | >15.1 µM |
| C[C@@H]1[C@@H]2O[C@]3(NC(=O)OC(C)(C)C)[C@@H](C)[C@H]1O[C@H]2[C@@H]3Br | NL4-3 |  | MT-4 | >72 µM |
| COc1ccc(CN2CCC(N=C3C=C(Cc4ccc(Cl)cc4Cl)NS(=O)(=O)N3)CC2)cc1 | RES056 | RT-K103N Y181C | MT-4 | >109 µM |
| COc1cc(OC)cc(OC2O[C@H](CO)[C@@H](O)[C@H](O)[C@H]2O)c1 | IIIB |  | MT-4 | 193 µM |
| CC(C)(C)c1cc(C(C)(C)C)c(SCCO)c(O)c1O |  |  | CEM.SS + MT-4 | 3.67 µg/mL |
| C[C@@H]1[C@@H]2O[C@]3(NC(=O)OC(C)(C)C)[C@@H](C)[C@H]1O[C@H]2[C@@H]3O | NL4-3 |  | MT-4 | >88 µM |
| COC(=O)c1ccc(CN2CCC(Nc3nc(Nc4c(C)cc(C)cc4C)c4[nH]cnc4n3)CC2)cc1 | RES056 |  | MT-4 | >24.06 µM |
| C#Cc1ccc(Nc2nccc(Oc3c(C)cc(-c4cn(Cc5ccc(O)cc5)nn4)cc3C)n2)cc1 | IIIB | Y188L | MT-4 | >2.1 µM |
| Cc1cc(C#Cc2ccccc2)cc(C)c1Oc1ccnc(Nc2ccc(C#N)cc2)n1 | IIIB | E138K | MT-4 | 0.237 µM |
| Cc1c(-c2cnccn2)ssc1=S | IIIB |  | PBMC | 11 µM |
| N#Cc1ccccc1CN1CCC(N=C2C=C(Cc3ccc(Cl)cc3Cl)NS(=O)(=O)N2)CC1 | IIIB |  | MT-4 | 23.15 µM |
| COC(O)c1cc(O)c(O)c(O)c1 | IIIB |  | MT-4 | 3.95 µM |
| Cc1cc(C)c(Nc2nc(NC3CCN(Cc4cccnc4)CC3)nc3nc[nH]c23)c(C)c1 | IIIB |  | MT-4 | 19.55 µM |
| CC(C)Nc1cccnc1N1CCN(C(=O)c2cc3cc(NS(C)(=O)=O)ccc3[nH]2)CC1 | IIIB |  | MT-4 | 0.32 µM |
| Cc1cccc(C)c1Oc1ccnc(Nc2ccc(C#N)cc2)n1 | IIIB | K103N | MT-4 | 0.025 µM |
| Cc1cccc(C)c1OCC(=O)N[C@@H](Cc1ccccc1)[C@@H](O)C[C@H](Cc1ccccc1)NC(=O)[C@H](C(C)C)N1CCCNC1=O | LAI |  | MT-2 | 0.032 µM |
| Cc1cn([C@H]2C[C@H](N=[N+]=[N-])[C@@H](CO)O2)c(=O)[nH]c1=O |  |  | MT-4 | 0.1 µM |
| Cc1ccc(/C=C/c2cc(C)c(Oc3ccnc(Nc4ccc(C#N)cc4)n3)c(C)c2)cc1 | IIIB | K103N | MT-4 | 0.189 µM |
| O=S1(=O)NC(Cc2cccc3ccccc23)=CC(=NC2CCN(Cc3c(Cl)cccc3Cl)CC2)N1 | IIIB |  | MT-4 | ≥42.87 µM |
| CC(=O)Nc1cccc(C#Cc2cc(C)c(Oc3ccnc(Nc4ccc(C#N)cc4)n3)c(C)c2)c1 | IIIB | E138K | MT-4 | 0.124 µM |
| COc1ccc(S(=O)(=O)N(CC(C)C)C[C@@H](O)[C@H](Cc2ccccc2)NC(=O)O[C@H]2CCO[C@H]3OCC[C@H]32)cc1 | LAI |  | MT-2 | 0.019 µM |
| CC(C)Nc1cccnc1N1CCN(C(=O)c2cc3cc(NS(C)(=O)=O)ccc3[nH]2)CC1 | IIIB |  | MT-4 | 0.023 µM |
| Cc1ccnc2c1NC(=O)c1cccnc1N2C1CC1 | IIIB |  | MT-4 | 0.31 µM |

The last 6 rows once more:

structure | strain or isolate | changes | cell line | value
Cc1ccc(/C=C/c2cc(C)c(Oc3ccnc(Nc4ccc(C#N)cc4)n3)c(C)c2)cc1 | IIIB | K103N | MT-4 | 0.189 µM
O=S1(=O)NC(Cc2cccc3ccccc23)=CC(=NC2CCN(Cc3c(Cl)cccc3Cl)CC2)N1 | IIIB |  | MT-4 | ≥42.87 µM
CC(=O)Nc1cccc(C#Cc2cc(C)c(Oc3ccnc(Nc4ccc(C#N)cc4)n3)c(C)c2)c1 | IIIB | E138K | MT-4 | 0.124 µM
COc1ccc(S(=O)(=O)N(CC(C)C)C[C@@H](O)[C@H](Cc2ccccc2)NC(=O)O[C@H]2CCO[C@H]3OCC[C@H]32)cc1 | LAI |  | MT-2 | 0.019 µM
CC(C)Nc1cccnc1N1CCN(C(=O)c2cc3cc(NS(C)(=O)=O)ccc3[nH]2)CC1 | IIIB |  | MT-4 | 0.023 µM
Cc1ccnc2c1NC(=O)c1cccnc1N2C1CC1 | IIIB |  | MT-4 | 0.31 µM